Measured values from several laboratories, pooled; numbers as filed in NIAID ChemDB.

All rows: host cell toxicity; cells: H9; endpoint: CC50

CCn is the concentration with n% toxicity to the cells. Neighbouring rows are from separate reports.

COc1cc(C(=O)N[C@H]2CCc3cc(OC)c(OC)c(OC)c3-c3ccc(OC)c(=O)cc32)cc(OC)c1OC ; result: 0.04 µM
[N-]=[N+]=N[C@@H]1C[C@H](n2ccc(=O)[nH]c2=O)O[C@@H]1CO ; result: >100 µM
C[C@]12CCC3C(CC[C@@]45O[C@@H]4C(=O)C(C(N)=O)C[C@]35C)C1CC[C@@H]2O ; result: 7.8 µM
CC(C)[C@H](NC(=O)CCc1ccccn1)C(=O)N[C@@H](Cc1ccccc1)[C@@H](O)[C@H](O)[C@H](Cc1ccccc1)NC(=O)[C@@H](NC(=O)CCc1ccccn1)C(C)C ; method: trypan blue ; result: >100 µM
O=c1c(O)cc([C@H]2Oc3cc(O)cc(O)c3C[C@H]2O)cc2c([C@H]3Oc4cc(O)cc(O)c4C[C@H]3O)cc(O)c(O)c12 ; result: 48 µg/mL
COc1ccc(C(C)c2c3cc(OC)c(OC)cc3cc[n+]2C)cc1OC ; result: >100 µg/mL
COc1cc2c(c(OC)c1O)-c1ccc(SC)c(=O)cc1[C@@H](N)CC2 ; result: 1.4 µM
C[C@@H]1C[C@@H]([C@H](O)CC2CC(=O)NC(=O)C2)C(=O)[C@@H](C)C1 ; result: 1 µg/mL
CO[C@H]1O[C@@H](n2ccc(=O)[nH]c2=O)C[C@@H]1N=[N+]=[N-] ; result: 370 µM
COc1cc2c(c(OC)c1OC)-c1ccc(O)c(=O)cc1[C@@H](NC(=O)C(F)(F)F)CC2 ; result: 0.2 µM
CC(C)[C@H](NC(=O)OCc1ccccn1)C(=O)NC(Cc1ccccc1)C(O)C(F)(F)C(Cc1ccccc1)NC(=O)[C@@H](NC(=O)OCc1ccccn1)C(C)C ; method: trypan blue ; result: 25 µM
Nc1nc2c(ncn2[C@H]2C=C[C@@H](CO)C2)c(=O)o1 ; method: MTT ; result: >500 µg/mL
CC1(C)Oc2ccc3ccc(=O)oc3c2[C@@H](OC(=O)C23CCC(C)(C(=O)O2)C3(C)C)[C@H]1OC(=O)C12CCC(C)(C(=O)O1)C2(C)C ; result: 35 µM
Cc1cn([C@H]2C[C@H](N=[N+]=[N-])[C@@H](CO)O2)c(=O)[nH]c1=O ; result: 1875 µM
O=C(O[C@@H]1Cc2c(O)cc(O)cc2O[C@@H]1c1cc(O)c(O)c(O)c1)c1cc(O)c(O)c(O)c1 ; result: 8 µg/mL
CC(C)[C@H](NC(=O)OCc1ccccc1)C(=O)N[C@@H](Cc1ccccc1)[C@H](O)[C@H](Cc1ccccc1)NC(=O)[C@@H](NC(=O)OCc1ccncc1)C(C)C ; method: trypan blue ; result: 15 µM
O=C(O[C@@H]1Cc2c(O)cc(O)cc2O[C@@H]1c1cc(O)c(O)c2c(=O)c(O)cc([C@H]3Oc4cc(O)cc(O)c4C[C@H]3O)cc12)c1cc(O)c(O)c(O)c1 ; result: 48 µg/mL
C[C@@]12CCCC[C@]13O[C@@H]3C(=O)C(C(=O)Nc1ccccc1)C2 ; result: 7.98 µM
Nc1nc2c(ncn2[C@@H]2O[C@H](CO)[C@@H](O)[C@H]2O)c(=O)o1 ; result: >500 µg/mL
COc1cc2c(cc1OC)[C@@H](Nc1ccc([N+](=O)[O-])cc1)[C@H]1COC(=O)[C@@H]1[C@@H]2c1cc(OC)c(O)c(OC)c1 ; result: 0.158 µg/mL
COc1c2c(cc3c1-c1c(cc4c(c1OC)OCO4)C(OC(=O)c1ccccc1)[C@H](C)[C@@H](C)C3)OCO2 ; result: 41 µg/mL
C[C@@]12CCCC[C@]13O[C@@H]3C(=O)C(C#N)C2 ; result: 33 µM
Cc1cn([C@H]2C[C@H](N=[N+]=[N-])[C@@H](CO)O2)c(=O)[nH]c1=O ; result: 500 µg/mL
O=c1[nH]cnc2c1ncn2[C@H]1CC[C@@H](CO)O1 ; result: >500 µg/mL
C/C=C(/C)C(=O)OC1c2cc3c(c(OC)c2-c2c(cc4c(c2OC)OCO4)C[C@H](C)[C@H]1C)OCO3 ; result: 34 µg/mL
Nc1nc2c(ncn2[C@@H]2O[C@H](COP(=O)(O)O)[C@@H](O)[C@H]2O)c(=O)o1 ; method: MTT ; result: >500 µg/mL
Cc1cc(=O)[nH]c2cc(O)ccc12 ; result: 125 µM
COc1cc2c(c(OC)c1OC)-c1ccc(OC)c(=O)cc1[C@@H](NC(=O)/C=C/c1ccc(O)c(O)c1)CC2 ; result: 0.29 µM
Cc1cn([C@H]2C[C@H](N=[N+]=[N-])[C@@H](CO)O2)c(=O)[nH]c1=O ; result: >500 µg/mL
C[C@]12CCCC[C@]13O[C@@H]3C(=O)C(C#N)C2 ; result: 98.42 µM
COc1cc2c(cc1OC)[C@@H](Nc1ccc(F)cc1)[C@H]1COC(=O)[C@@H]1[C@@H]2c1cc(OC)c(O)c(OC)c1 ; result: 0.166 µg/mL
Cc1cn([C@H]2C[C@H](N=[N+]=[N-])[C@@H](CO)O2)c(=O)[nH]c1=O ; result: >300 µg/mL
COc1cc([C@@H]2c3cc4c(cc3[C@@H](Nc3ccc(-c5nc6ccccc6[nH]5)cc3)[C@H]3COC(=O)[C@H]23)OCO4)cc(OC)c1O ; result: 0.016 µg/mL
Nc1nc2c(ncn2[C@H]2CC[C@@H](CO)C2)c(=O)o1 ; result: >500 µg/mL
CC(C)[C@H](NC(=O)OCc1nccs1)C(=O)N[C@@H](Cc1ccccc1)C(O)[C@H](Cc1ccccc1)NC(=O)[C@@H](NC(=O)OCc1nccs1)C(C)C ; method: trypan blue ; result: 75 µM
C[C@]12CCC3C(CC[C@@]45O[C@@H]4C(=O)C(S(C)(=O)=O)C[C@]35C)C1CC[C@@H]2O ; result: 5.46 µM
Cc1cc(=O)[nH]c2cc(N)ccc12 ; result: 104 µM
Nc1nc2c(ncn2[C@@H]2O[C@H](CO)[C@@H](O)[C@H]2O)c(=O)o1 ; method: MTT ; result: >500 µg/mL
CCc1c2cc(O)c(O)cc2cc[n+]1C ; result: 2.07 µg/mL
C[C@@]12CCCC[C@]13O[C@@H]3C(=O)C(C(N)=O)C2 ; result: 26.24 µM
O=C(O)C(=O)CC(=O)c1cc(OCc2ccccc2)cc(OCc2ccccc2)c1 ; method: XTT ; result: 90 µM
O=C(O[C@@H]1Cc2c(O)cc(O)c(Cc3c(O)cc(O)c4c3O[C@H](c3cc(O)c(O)c(O)c3)[C@H](OC(=O)c3cc(O)c(O)c(O)c3)C4)c2O[C@@H]1c1cc(O)c(O)c(O)c1)c1cc(O)c(O)c(O)c1 ; result: 45 µg/mL
C=C(c1ccc(OC)c(OC)c1)c1c2cc(OC)c(OC)cc2cc[n+]1C ; result: 17.4 µg/mL